Columns and labels:
[1] = test system: desacetylcephalosporin C production; assay: Shake flask fermentations, additional phosphorous compounds (Example 6)
[2] = test system: desacetylcephalosporin C production; assay: Fermentors, additional phosphorous compounds (Example 7)

Structure (SMILES) | inhibitory activity with respect to desacetylcephalosporin C production [1] | inhibitory activity with respect to desacetylcephalosporin C production [2]
COP(=O)(CC#N)OC | exhibited inhibitory activity | –
CCOP(OCC)OP(OCC)OCC | exhibited inhibitory activity | exhibited inhibitory activity
ClP(Cl)OCC(Cl)(Cl)Cl | exhibited inhibitory activity | exhibited inhibitory activity
ClCCOP(OCCCl)OCCCl | exhibited inhibitory activity | –
C=CCP(=O)(OCC)OCC | exhibited inhibitory activity | –
CCCCOP(OCCCC)OCCCC | exhibited inhibitory activity | –

From US4520101A (priority 1983, dated 1985)
